The results in this text go back to patent US20150023988A1.

Values joined by “and” are separate entries in the source; they are usually repeats but may differ in a detail not shown here. Equal entries are not always repeated.

One test addresses human voltage-gated sodium channel Nav1.5 (human), Q14524. The experiment in a line: cell-based or functional assay.
Turning to YCQKFMWTCDSKRACCEGLECKLWCRKYI (modifications not checked) [[Phe5; Glu20; Tyr28]JzTx-V(1-29)], the PX hNav1.5 Tonic IC50 was above 1000 nM.
With GYCQKWVWTCDSKRACCEGLECKLWCRKIW (modifications not checked) [Pra-[Nva6; Glu20; Trp29]JzTx-V(1-29)], the PX hNav1.5 Tonic IC50 was found to be 5300 nM.
As for KCQKWLWTCDSKRACCEGLECKLWCRKIW (modifications not checked) [[AzK1; Nle6; Glu20; Trp29]JzTx-V(1-29)], the PX hNav1.5 Tonic IC50 was 2560 nM.
Molecule AYCQKWLWTCDSKRACCEGLECKLWCRKIW (modifications not checked) [Aha-[Nle6; Glu20; Trp29]JzTx-V(1-29)] showed a PX hNav1.5 Tonic IC50 of 3770 nM.
AYCQKWLWTCDSKRKCCEGLRCKLWCRKEI (modifications not checked) [CyA-[Leu6, Lys(Pra)14, Glu28]JzTx-V(1-29)] returned a PX hNav1.5 Tonic IC50 of 1550 nM.
Regarding YCQKWLWTCDSKRACCKGLECKLWCRKIW (modifications not checked) [[Nle6; AzK17; Glu20; Trp29]JzTx-V(1-29)], the PX hNav1.5 Tonic IC50 stood at 750 nM.
In the case of YCQKWLWTCDSKRGCCEGLRCKLWCRKEI (modifications not checked) [[Nle6; Pra14; Glu28]JzTx-V(1-29)], the PX hNav1.5 Tonic IC50 came to 3510 nM.
Same read-out and setting: as for AYCQKWLWTCDSKRKCCEGLRCKLWCRKEI (modifications not checked) [CyA-[Nle6, Lys(Pra)14, Glu28]JzTx-V(1-29)], the figure is 920 nM and 1450 nM and 2160 nM.
Molecule ACQKWLWTCDSKRACCEGLECKLWCRKIW (modifications not checked) [[Aha1; Nle6; Glu20; Trp29]JzTx-V(1-29)] showed a PX hNav1.5 Tonic IC50 of 2030 nM.
In turn, GYCQKWLWTCDSKRACCEGLECKLWCRKIW (modifications not checked) [Pra-[Leu6; Glu20; Trp29]JzTx-V(1-29)] showed a PX hNav1.5 Tonic IC50 of 1330 nM.
Consider YCQKWLWTCDGKRACCEGLRCKLWCRKEI (modifications not checked) [[Nle6; Pra11; Glu28]JzTx-V(1-29)], for which the PX hNav1.5 Tonic IC50 worked out at 5980 nM.
YCQKWLWTCDSKRACCKGLECKLWCRKIW (modifications not checked) [[Nle6; Lys(Pra-NPEG11)17; Glu20; Trp29]JzTx-V(1-29)] yielded a PX hNav1.5 Tonic IC50 of 3120 nM.
Consider YCQKWLWTCDSKRACCEGLECKLWCRKII (modifications not checked) [[Nle6;Glu20]JzTx-V(1-29)], for which the IC50 (IonWorks Quattro) is above 5000 nM.
With YCQKWLWTCDSKRACCKGLECKLWCRKIW (modifications not checked) [[Nle6; Lys(Pra-NPEG3)17; Glu20; Trp29]JzTx-V(1-29)], the PX hNav1.5 Tonic IC50 turned out to be 580 nM.
YCQKWLWTCDSKRACCGGLRCKLWCRKEI (modifications not checked) [[Nle6; Pra17; Glu28]JzTx-V(1-29)] came in with a PX hNav1.5 Tonic IC50 of 3080 nM.
As to YCQKWLWTCDSKRACCEGLRCKAWCRKII (modifications not checked) [[Nle6;Atz(NPEG10)23]JzTx-V(1-29)], the IC50 (IonWorks Quattro) was above 7000 nM.
YCQKFMWTCDSKRACCEGLECKLWCRKYI (modifications not checked) [[pI-Phe5;Glu20;Tyr28]JzTx-V(1-29)] came in with an IC50 (IonWorks Quattro) above 5000 nM.
GYCQKWFWTCDSKRACCEGLECKLWCRKIW (modifications not checked) [Pra-[Phe6; Glu20; Trp29]JzTx-V(1-29)] gave a PX hNav1.5 Tonic IC50 of 780 nM.
In turn, YCQKWLWTCDSKRKCCEGLECKLWCRKIW (modifications not checked) [[Nle6; Lys(Pra-NPEG3)14; Glu20; Trp29]JzTx-V(1-29)] registered a PX hNav1.5 Tonic IC50 of 3010 nM.
Still for that read-out and setting: as for YCQKFMWTCDSKRACCEGLECKLWCRKYI (modifications not checked) [[pI-Phe5; Glu20; Tyr28]JzTx-V(1-29)], the figure is above 1000 nM; as for YCQKWLWTCDSKRKCCEGLECKLWCRKIW (modifications not checked) [[Nle6; Lys(Pra-NPEG11)14; Glu20; Trp29]JzTx-V(1-29)], 6100 nM.

Another test has as its target human voltage-gated sodium channel Nav1.7 (human), Q15858. Description: cell-based or functional assay.
On to YCQKFMWTCDSKRACCEGLECKLWCRKYI (modifications not checked) [[Phe5; Glu20; Tyr28]JzTx-V(1-29)], for which the PX hNav1.7 Tonic IC50 is 4.6 nM.
Still for that read-out and setting: as for GYCQKWVWTCDSKRACCEGLECKLWCRKIW (modifications not checked) [Pra-[Nva6; Glu20; Trp29]JzTx-V(1-29)], the figure is 0.818 nM; as for KCQKWLWTCDSKRACCEGLECKLWCRKIW (modifications not checked) [[AzK1; Nle6; Glu20; Trp29]JzTx-V(1-29)], 3.86 nM; as for AYCQKWLWTCDSKRACCEGLECKLWCRKIW (modifications not checked) [Aha-[Nle6; Glu20; Trp29]JzTx-V(1-29)], 1.12 nM.
Molecule AYCQKWLWTCDSKRKCCEGLRCKLWCRKEI (modifications not checked) [CyA-[Leu6, Lys(Pra)14, Glu28]JzTx-V(1-29)] displayed a PX hNav1.7 Tonic IC50 of 1.5 nM.
On to YCQKWLWTCDSKRACCKGLECKLWCRKIW (modifications not checked) [[Nle6; AzK17; Glu20; Trp29]JzTx-V(1-29)], for which the PX hNav1.7 Tonic IC50 worked out at 9.08 nM.
Take YCQKWLWTCDSKRGCCEGLRCKLWCRKEI (modifications not checked) [[Nle6; Pra14; Glu28]JzTx-V(1-29)]: the PX hNav1.7 Tonic IC50 came out at 0.493 nM.
In turn, ACQKWLWTCDSKRACCEGLECKLWCRKIW (modifications not checked) [[Aha1; Nle6; Glu20; Trp29]JzTx-V(1-29)] had a PX hNav1.7 Tonic IC50 of 3.21 nM.
Still for that read-out and setting: the value for GYCQKWLWTCDSKRACCEGLECKLWCRKIW (modifications not checked) [Pra-[Leu6; Glu20; Trp29]JzTx-V(1-29)] was 0.571 nM.
YCQKWLWTCDGKRACCEGLRCKLWCRKEI (modifications not checked) [[Nle6; Pra11; Glu28]JzTx-V(1-29)] returned a PX hNav1.7 Tonic IC50 of 0.763 nM.
Molecule YCQKWLWTCDSKRACCKGLECKLWCRKIW (modifications not checked) [[Nle6; Lys(Pra-NPEG11)17; Glu20; Trp29]JzTx-V(1-29)] displayed a PX hNav1.7 Tonic IC50 of 900 nM.
With YCQKWLWTCDSKRACCKGLECKLWCRKIW (modifications not checked) [[Nle6; Lys(Pra-NPEG3)17; Glu20; Trp29]JzTx-V(1-29)], the PX hNav1.7 Tonic IC50 was determined as 570 nM.
YCQKWLWTCDSKRACCGGLRCKLWCRKEI (modifications not checked) [[Nle6; Pra17; Glu28]JzTx-V(1-29)]: the PX hNav1.7 Tonic IC50 was 3.63 nM.
Take GYCQKWFWTCDSKRACCEGLECKLWCRKIW (modifications not checked) [Pra-[Phe6; Glu20; Trp29]JzTx-V(1-29)]: the PX hNav1.7 Tonic IC50 was 15 nM.
Molecule YCQKWLWTCDSKRKCCEGLECKLWCRKIW (modifications not checked) [[Nle6; Lys(Pra-NPEG3)14; Glu20; Trp29]JzTx-V(1-29)] came in with a PX hNav1.7 Tonic IC50 of 30 nM.
Consider YCQKFMWTCDSKRACCEGLECKLWCRKYI (modifications not checked) [[pI-Phe5; Glu20; Tyr28]JzTx-V(1-29)], for which the PX hNav1.7 Tonic IC50 was found to be 2.2 nM.
Still for that read-out and setting: as for YCQKWLWTCDSKRKCCEGLECKLWCRKIW (modifications not checked) [[Nle6; Lys(Pra-NPEG11)14; Glu20; Trp29]JzTx-V(1-29)], the figure is 520 nM.

The target of another test is human voltage-gated sodium channel Nav1.4 (human), P35499. Description: cell-based or functional assay.
GYCQKWVWTCDSKRACCEGLECKLWCRKIW (modifications not checked) [Pra-[Nva6; Glu20; Trp29]JzTx-V(1-29)] yielded a PX hNav1.4 Tonic IC50 of 968 nM.
Molecule KCQKWLWTCDSKRACCEGLECKLWCRKIW (modifications not checked) [[AzK1; Nle6; Glu20; Trp29]JzTx-V(1-29)] had a PX hNav1.4 Tonic IC50 of 1740 nM.
For AYCQKWLWTCDSKRACCEGLECKLWCRKIW (modifications not checked) [Aha-[Nle6; Glu20; Trp29]JzTx-V(1-29)], the PX hNav1.4 Tonic IC50 is 1200 nM.
Still for that read-out and setting: as for AYCQKWLWTCDSKRKCCEGLRCKLWCRKEI (modifications not checked) [CyA-[Leu6, Lys(Pra)14, Glu28]JzTx-V(1-29)], the figure is 166 nM; as for YCQKWLWTCDSKRACCKGLECKLWCRKIW (modifications not checked) [[Nle6; AzK17; Glu20; Trp29]JzTx-V(1-29)], 360 nM; as for YCQKWLWTCDSKRGCCEGLRCKLWCRKEI (modifications not checked) [[Nle6; Pra14; Glu28]JzTx-V(1-29)], 105 nM.
On the same count and under the same terms, as for ACQKWLWTCDSKRACCEGLECKLWCRKIW (modifications not checked) [[Aha1; Nle6; Glu20; Trp29]JzTx-V(1-29)], the figure is 767 nM; as for GYCQKWLWTCDSKRACCEGLECKLWCRKIW (modifications not checked) [Pra-[Leu6; Glu20; Trp29]JzTx-V(1-29)], 1180 nM; as for YCQKWLWTCDGKRACCEGLRCKLWCRKEI (modifications not checked) [[Nle6; Pra11; Glu28]JzTx-V(1-29)], 222 nM.
Molecule YCQKWLWTCDSKRACCKGLECKLWCRKIW (modifications not checked) [[Nle6; Lys(Pra-NPEG11)17; Glu20; Trp29]JzTx-V(1-29)] registered a PX hNav1.4 Tonic IC50 of 1630 nM.
Regarding YCQKWLWTCDSKRACCEGLECKLWCRKII (modifications not checked) [[Nle6;Glu20]JzTx-V(1-29)], the IC50 (IonWorks Quattro) is above 5000 nM.
For the molecule YCQKWLWTCDSKRACCKGLECKLWCRKIW (modifications not checked) [[Nle6; Lys(Pra-NPEG3)17; Glu20; Trp29]JzTx-V(1-29)], the PX hNav1.4 Tonic IC50 was found to be 453 nM.
YCQKWLWTCDSKRACCGGLRCKLWCRKEI (modifications not checked) [[Nle6; Pra17; Glu28]JzTx-V(1-29)]: the PX hNav1.4 Tonic IC50 amounted to 125 nM.
The molecule YCQKWLWTCDSKRACCEGLRCKAWCRKII (modifications not checked) [[Nle6;Atz(NPEG10)23]JzTx-V(1-29)] yielded an IC50 (IonWorks Quattro) above 7000 nM.
Take YCQKFMWTCDSKRACCEGLECKLWCRKYI (modifications not checked) [[pI-Phe5;Glu20;Tyr28]JzTx-V(1-29)]: the Nav1.4/Nav1.7 (ratio of IC50s) was 30.
As to GYCQKWFWTCDSKRACCEGLECKLWCRKIW (modifications not checked) [Pra-[Phe6; Glu20; Trp29]JzTx-V(1-29)], the PX hNav1.4 Tonic IC50 came to 661 nM.
Still for that read-out and setting: as for YCQKWLWTCDSKRKCCEGLECKLWCRKIW (modifications not checked) [[Nle6; Lys(Pra-NPEG3)14; Glu20; Trp29]JzTx-V(1-29)], the figure is 1130 nM; as for YCQKFMWTCDSKRACCEGLECKLWCRKYI (modifications not checked) [[pI-Phe5; Glu20; Tyr28]JzTx-V(1-29)], 172 nM; as for YCQKWLWTCDSKRKCCEGLECKLWCRKIW (modifications not checked) [[Nle6; Lys(Pra-NPEG11)14; Glu20; Trp29]JzTx-V(1-29)], 2730 nM.
